Anti-infective test results gathered from many reports (values: NIAID ChemDB through PubChem).

All rows: target-level tests; species: HIV-1; target: Reverse transcriptase; endpoint: IC50

Two numbers with a dash give a range or band. ICn is the concentration giving n% inhibition. An empty or dashed field is not shown. Conditions beyond the fields shown may differ between rows.

compound | strain | mutations | method | value
CN(C)[C@@H]1C(=O)C(C(N)=O)=C(O)[C@@]2(O)C(=O)C3=C(O)c4c(O)ccc(Cl)c4[C@@H](O)[C@H]3C[C@@H]12 | - | - | nucleotide incorporation | 320 µM
CCN1c2ncc(CCOc3ccc(C(=O)O)c4ccccc34)cc2C(=O)N(C)c2cccnc21 | - | RT-V106A | nucleotide incorporation / radiometric | >1 µM
C[C@H](CNC(=S)Nc1ccc(Br)cn1)c1ccccc1 | - | - | nucleotide incorporation | 1.9 µM
COC(=O)P(=O)(OC)OC | - | - | nucleotide incorporation | 32 µM
Nc1nc2c(ncn2[C@H]2CC[C@@H](COP(=O)(O)OP(=O)(O)OP(=O)(O)O)O2)c(=O)[nH]1 | - | - | - | 0.074 µM
O=C(c1cc(O)cc(O)c1)c1c(O)cc(O)cc1O | - | - | RT activity / radiometric | 272 µM
COc1ccc(OC)c(C/C=C/c2cc(O)c(O)c(O)c2)c1 | - | - | - | >100 µM
Cc1cn([C@H]2C[C@H](N=[N+]=[N-])[C@@H](COP(=O)(O)OP(=O)(O)CP(=O)(O)O)O2)c(=O)[nH]c1=O | - | - | RT activity | 6.95 µM
C[C@@H](CNC(=S)Nc1ccc(Cl)cn1)c1ccccc1 | - | - | nucleotide incorporation | 0.1 µM
O=c1c(O[C@@H]2OC[C@H](O)[C@H](O)[C@H]2O)c(-c2ccc(O)c(O)c2)oc2cc(O)cc(O)c12 | - | - | nucleotide incorporation | >1000 µM
COc1ccc2nc(NC(=S)N[C@@H](C)c3ccccc3)sc2c1 | - | - | nucleotide incorporation | >100 µM
Cc1cc(-c2ccc(C#N)cc2)cc(C)c1Oc1nc(Nc2ccc(C#N)cc2)nc2ccsc12 | IIIB | - | RT activity / fluorescence | 0.044 µM
Nc1ncnc2c1ncn2[C@H]1C[C@H](O)[C@@H](COP(=O)(O)O)O1 | - | - | nucleotide incorporation / radiometric | >10 µM
Cc1cccc2sc(NC(=S)N[C@H](C)c3ccccc3)nc12 | - | - | nucleotide incorporation | 8.7 µM
CCN1c2ncc(CCOc3ccc(C(=O)O)c4c3CCCC4)cc2C(=O)N(C)c2cccnc21 | - | RT-Y188L | nucleotide incorporation / radiometric | >1 µM
CCOC(=O)Cc1csc(NC(=S)NC[C@@H](C)c2ccccc2)n1 | - | - | nucleotide incorporation | >100 µM
O=C(O)c1cc(O)c(O)c(O)c1 | - | - | nucleotide incorporation | >1000 µM
Nc1ncnc2c1ncn2OCCOCP(=O)(O)O | - | - | RT activity | 1.5 µM
O=c1c(O[C@@H]2O[C@H](CO)[C@@H](O)[C@H](O)[C@H]2O)c(-c2ccc(O)cc2)oc2cc(O)cc(O)c12 | - | - | nucleotide incorporation | 125 µM
CCN1c2ncc(CCOc3ccc(CC(=O)O)c4ccccc34)cc2C(=O)N(C)c2ccc(F)nc21 | - | RT-V106A | nucleotide incorporation / radiometric | >1 µM
CCC1(c2ccc(CNc3ccccc3)cc2)Oc2ccccc2-n2cccc2C1=O | - | RT-K103N | nucleotide incorporation / radiometric | 2.5 µM
COc1ccc(OC(=O)P(=O)(O)O)cc1 | - | - | nucleotide incorporation | 5.4 µM
CCN1c2cc(C)c(C)cc2N(C)S(=O)(=O)c2cccnc21 | - | - | nucleotide incorporation | 20 µM
CCN1c2ncc(CCOc3ccc(/C=C(\C)C(=O)O)c4ccccc34)cc2C(=O)Nc2c(C)cc(F)nc21 | WT | - | nucleotide incorporation / radiometric | <0.1 µM
O=C(OC[C@H]1O[C@@H](OC(=O)c2cc(O)c(O)c(O)c2)[C@H](O)[C@@H](OC(=O)c2cc(O)c(O)c(O)c2)[C@@H]1OC(=O)c1cc(O)c(O)c(O)c1)c1cc(O)c(O)c(O)c1 | - | - | nucleotide incorporation | 86 µM
Cc1c(Sc2ccccc2)n(COCCOP(=O)(O)OP(=O)(O)OP(=O)(O)O)c(=O)[nH]c1=O | IIIB | - | nucleotide incorporation | >250 µM
CCN1c2ncc(CCOc3ccc(CCC(=O)NN)c4ccccc34)cc2C(=O)N(C)c2cccnc21 | - | RT-K103N Y181C | nucleotide incorporation / radiometric | 0.1–1 µM
C=C1[C@H](CO)[C@@H](O)C[C@@H]1n1cnc2c(=O)[nH]c(N)nc21 | - | - | absorbance | 6.5 µM
O=c1c(O[C@@H]2OC[C@@H](O)[C@H](O)[C@@H]2O)c(-c2ccc(O)c(O)c2)oc2cc(O)cc(O)c12 | - | - | nucleotide incorporation | 1000 µM
C=C(CC(=O)O)c1ccc(OCCc2cnc3c(c2)C(=O)N(C)c2cccnc2N3CC)c2ccccc12 | - | RT-V106A | nucleotide incorporation / radiometric | >1 µM
CCC1(c2ccc(CCc3ccccc3)cc2)Oc2ccccc2-n2cccc2C1=O | - | RT-Y181I | nucleotide incorporation / radiometric | >10 µM
Cc1cn([C@H]2CC[C@@H](COP(=O)(O)OP(=O)(O)OP(=O)(O)O)O2)c(=O)[nH]c1=O | IIIB | - | - | 0.025 µM
CCC1(c2cccc(Cl)c2)Cc2ccccc2-n2cccc2C1=O | - | RT-L100I | nucleotide incorporation / radiometric | 10 µM
C[C@@H](CNC(=S)Nc1ccccn1)c1ccccc1 | - | - | nucleotide incorporation | 8.4 µM
CC(C)=CCc1c(O)cc2oc3ccc(O)cc3c(=O)c2c1O | - | - | RT activity / radiometric | 58.24 µM
CN(C)[C@@H]1C(=O)C(C(N)=O)=C(O)[C@@]2(O)C(=O)C3=C(O)c4c(O)cccc4[C@@](C)(O)[C@H]3[C@H](O)[C@@H]12 | - | - | nucleotide incorporation | >2000 µM
CCN1c2ncc(CCOc3ccc(S(N)(=O)=O)c4ccccc34)cc2C(=O)N(C)c2cccnc21 | - | RT-V106A | nucleotide incorporation / radiometric | 0.1–1 µM
N#Cc1ccc(Nc2nc(Oc3ccc(-c4ccc(C#N)cc4)cc3[N+](=O)[O-])c3sccc3n2)cc1 | IIIB | - | RT activity / fluorescence | 0.063 µM
C[C@H]1c2cccc(O)c2C(O)=C2C(=O)[C@]3(O)C(O)=C(C(N)=O)C(=O)[C@@H](N(C)C)[C@@H]3[C@@H](O)[C@@H]21 | - | - | nucleotide incorporation | 35 µM
CC[C@@]1(c2ccccc2)Oc2cccnc2-n2cccc2C1=O | - | 1(RT) | RT activity | >2 µM
CCC1(c2ccc(Cn3ccsc3=N)cc2)Oc2ccccc2-n2cccc2C1=O | - | RT-V106A | nucleotide incorporation / radiometric | >10 µM
Cc1cn([C@H]2CC[C@@H](COP(=O)(O)OP(=O)(O)OP(=O)(O)O)O2)c(=O)[nH]c1=O | - | - | nucleotide incorporation | 0.024 µM

The first 2 rows once more:

{"compound": "CN(C)[C@@H]1C(=O)C(C(N)=O)=C(O)[C@@]2(O)C(=O)C3=C(O)c4c(O)ccc(Cl)c4[C@@H](O)[C@H]3C[C@@H]12", "method": "nucleotide incorporation", "value": "320 µM"}
{"compound": "CCN1c2ncc(CCOc3ccc(C(=O)O)c4ccccc34)cc2C(=O)N(C)c2cccnc21", "mutations": "RT-V106A", "method": "nucleotide incorporation / radiometric", "value": ">1 µM"}